Results: patent US20210403538A1 (VANDERBILT UNIVERSITY, published 2021)

B1: rEBOV-548 IgG1 (antibody, V domains shown)
VH: QVQVEESGGGVVQPGGSLRLSCAASGFMFSNYGMHWVRQAPGKGLEWMAFIRYDDSKKFYADSVKGRFTISRDNSKNTLYLQMNSLRAEDTALYYCAKELLQVYTSAWGEGHSYYYALDVWGLGTAVTVSS
VL: DIQMTQSPSSVSASVGDRVTITCRASQDISNWLAWYQQKPGKAPELLIYTASILQSGVSSRFSGSGSGTDFTLTISSLQPEDSATYYCQQGKSFPYTFGQGTKLEIK
B2: EBOV-515 (antibody, V domains shown)
VH: QVQLQESGPGLVKPSQTLSLTCTVSGGSINSAGYYWTWIRQHPGKGLEWIGYIDYTGRTYYNPSLESRVIISIDTSKNHFSLRLTSVSAADTAVYYCARESSWVSELGRDNWGQGTLVTVSS
VL: EIVMTQSPATLPVSPGEGATLSCRASQSVFTNLAWYQQKPGQAPRLLIYDASTRATGIPARFSGSGSGTEFTLTISSLQSEDFAVYYCQQYNNWPRTYGQGTRVEVK

Tests used:
Jurkat-EBOV GP = Jurkat-EBOV GP (Zaire ebolavirus (EBOV), Makona)
[1] = molecular target: EBOV GP on recombinant EBOV-eGFP virus (Zaire ebolavirus (EBOV)); assay: cell-based or functional assay

Row | Binder | fold increase in binding (Jurkat-EBOV GP) | Neutralization, IC50 ng/mL [1]
1 | B1 | ≤ 1.5 fold | –
2 | B2 | – | 1220 ng/mL
